Pooled drug test results. Numbers come from NIAID ChemDB, via PubChem.

Shared fields: tests in culture

ECn: concentration that inhibits the pathogen or its effect by n%.

structure | species | strain | method | conditions | measure | dose | value
CN(C)c1ccc(O)c2c1C[C@H]1C[C@H]3[C@H](N(C)C)C(=O)C(C(N)=O)=C(O)[C@@]3(O)C(=O)C1=C2O | Mycobacterium avium | ATCC 25291 | - | - | Median MIC | - | 32 µg/mL
CCN1CCN(c2c(F)cc3c(=O)c(C(=O)O)cn(C4CC4)c3c2F)CC1 | Mycobacterium fortuitum | ATCC 6841 | - | - | MIC | - | 0.13 µg/mL
Cc1cc(-c2cc3c(cc2F)c(=O)c(C(=O)O)cn3C2CC2)cc(C)n1 | Mycobacterium avium | 55 strains | - | - | MIC50 | - | 1.8 µg/mL
COc1c(N2CCN(C(C)C)CC2)c(F)cc2c(=O)c(C(=O)O)cn(C3CC3)c12 | Mycobacterium smegmatis | KD2012 (GYRA G89A) | - | - | MIC99 | - | 0.85 µg/mL
CCC1CN(c2cc3c(cc2F)c(=O)c(C(=O)O)cn3C2CC2)CCN1 | Mycobacterium bovis | BCG-CX1 (D94N) | - | - | MIC | - | 7 µg/mL
CNCC1CCN(c2c(F)cc3c(=O)c(C(=O)O)cn(-c4ccc(F)cc4F)c3c2F)C1 | Mycobacterium fortuitum | ATCC 6841 | - | - | MIC | - | 0.25 µg/mL
COc1ccc2c(c[n+](C)c3c4cc5c(cc4ccc23)OCO5)c1OC | Mycobacterium aurum | - | - | - | MIC50 | - | 7.3 µg/mL
CN(C)[C@@H]1C(=O)C(C(N)=O)=C(O)[C@@]2(O)C(=O)C3=C(O)c4c(O)cccc4[C@@](C)(O)[C@H]3C[C@@H]12 | Mycobacterium marinum | 37 clinical isolates | - | - | MIC50 | - | 1.5 µg/mL
CC[C@H]1OC(=O)[C@H](C)[C@@H](O[C@H]2C[C@@](C)(OC)[C@@H](O)[C@H](C)O2)[C@H](C)[C@@H](O[C@@H]2O[C@H](C)C[C@H](N(C)C)[C@H]2O)[C@](C)(OC)C[C@@H](C)C(=O)[C@H](C)[C@@H](O)[C@]1(C)O | Mycobacterium abscessus | X73 | broth dilution | - | MIC | - | 0.25 µg/mL
Cc1nn(-c2ccccc2)c2c1C(c1cn(-c3ccccc3)nc1-c1ccc(Cl)cc1)C1=C(NC(C)(c3cc(O)c(I)cc3Cl)NC1=O)O2 | Mycobacterium phlei | NCIM 2240 | agar diffusion / agar | - | MIC | - | 50 µg/mL
CN[C@@H]1[C@@H](O)[C@@H](O[C@@H]2[C@@H](O)[C@H](O[C@H]3O[C@H](CN)CC[C@H]3N)[C@@H](N)C[C@H]2N)OC[C@]1(C)O | Mycobacterium avium | ATCC 25291 | - | - | Mean MIC | - | 9.3 µg/mL
CC1CN(c2cc3c(cc2F)c(=O)c(C(=O)O)cn3C2CC2)CCN1 | Mycobacterium bovis | BCG-CX1 (D94N) | - | - | MIC | - | 5.6 µg/mL
CC1CN(c2nc3c(cc2F)c(=O)c(C(=O)O)cn3-c2ccc(F)cc2F)CC(C)N1 | Mycobacterium fortuitum | ATCC 6841 | - | - | MIC | - | 0.25 µg/mL
CCN1CCN(c2c(F)cc3c(=O)c(C(=O)O)cn(C4CC4)c3c2F)CC1 | Mycobacterium smegmatis | KD2012 (GYRA G89A) | - | - | MIC99 | - | 0.43 µg/mL
CNCC1CCN(c2nc3c(cc2F)c(=O)c(C(=O)O)cn3C2CC2)C1 | Mycobacterium fortuitum | ATCC 6841 | - | - | MIC | - | 0.13 µg/mL
CO[C@H]1/C=C/O[C@@]2(C)Oc3c(C)c(O)c4c(O)c(c(/C=N/N5CCN(C)CC5)c(O)c4c3C2=O)NC(=O)/C(C)=C\C=C\[C@H](C)[C@H](O)[C@@H](C)[C@@H](O)[C@@H](C)[C@H](OC(C)=O)[C@@H]1C | Mycobacterium avium intracellulare | 20 isolates | - | - | MIC50 | - | 1 µg/mL
COc1c(N2CCNC(C)C2)c(F)cc2c(=O)c(C(=O)O)cn(C3CC3)c12 | Mycobacterium fortuitum | ATCC 6841 | - | - | MIC | - | 0.06 µg/mL
CCC1CN(c2cc3c(cc2F)c(=O)c(C(=O)O)cn3C2CC2)CCN1 | Mycobacterium smegmatis | KD1991 (GYRA D95Y) | - | - | MIC99 | - | 3.8 µg/mL
CC1CN(c2c(F)cc3c(=O)c(C(=O)O)cn(C4CC4)c3c2Cl)CCN1 | Mycobacterium fortuitum | ATCC 6841 | - | - | MIC | - | 0.06 µg/mL
C[C@H]1c2cccc(O)c2C(O)=C2C(=O)[C@]3(O)C(O)=C(C(N)=O)C(=O)[C@@H](N(C)C)[C@@H]3[C@@H](O)[C@@H]21 | Mycobacterium marinum | 37 clinical isolates | - | - | MIC90 | - | 6 µg/mL
CC1CN(c2cc3c(cc2F)c(=O)c(C(=O)O)cn3C2CC2)CCN1 | Mycobacterium smegmatis | KD1987 (GYRA A91V) | - | - | MIC99 | - | 1.2 µg/mL
CNCC1CCN(c2c(F)cc3c(=O)c(C(=O)O)cn(C4CC4)c3c2Cl)C1 | Mycobacterium fortuitum | ATCC 6841 | - | - | MIC | - | ≤0.03 µg/mL
COc1ccc(-c2nn(-c3ccccc3)cc2C2C3=C(NC(C)(c4cc(O)c(I)cc4Cl)NC3=O)Oc3c2c(C)nn3-c2ccccc2)cc1 | Mycobacterium phlei | NCIM 2240 | agar diffusion / agar | - | zone | 1 mg/mL | 8.8 mm
CCN1CCN(c2c(F)cc3c(=O)c(C(=O)O)cn(C4CC4)c3c2OC)CC1 | Mycobacterium smegmatis | KD1987 (GYRA A91V) | - | - | MIC99 | - | 0.51 µg/mL
CN(C)c1ccc(O)c2c1C[C@H]1C[C@H]3[C@H](N(C)C)C(=O)C(C(N)=O)=C(O)[C@@]3(O)C(=O)C1=C2O | Mycobacterium marinum | 37 clinical isolates | - | - | MIC50 | - | 0.75 µg/mL
CO[C@H]1/C=C/O[C@@]2(C)Oc3c(C)c(O)c4c(O)c(c(/C=N/N5CCN(C)CC5)c(O)c4c3C2=O)NC(=O)/C(C)=C\C=C\[C@H](C)[C@H](O)[C@@H](C)[C@@H](O)[C@@H](C)[C@H](OC(C)=O)[C@@H]1C | Mycobacterium avium | ATCC 25291 | - | - | Mean MIC | - | 6.25 µg/mL
Cc1nn(-c2ccccc2)c2c1C(c1cn(-c3ccccc3)nc1-c1ccc(Cl)cc1)C1=C(NC(C)(c3cc(O)cc(O)c3)NC1=O)O2 | Mycobacterium phlei | NCIM 2240 | agar diffusion / agar | - | MIC | - | 70 µg/mL
NC[C@H]1O[C@H](O[C@H]2[C@H](O)[C@@H](O[C@H]3O[C@H](CO)[C@@H](O)[C@H](N)[C@H]3O)[C@H](N)C[C@@H]2N)[C@H](N)C[C@@H]1O | Mycobacterium avium | ATCC 25291 | - | - | Mean MIC | - | 4.5 µg/mL
Cc1nn(-c2ccccc2)c2c1C(c1cn(-c3ccccc3)nc1-c1ccc(Cl)cc1)C1=C(NC(C)(c3cc(O)c(Cl)c(O)c3)NC1=O)O2 | Mycobacterium phlei | NCIM 2240 | agar diffusion / agar | - | zone | 0.1 mg/mL | 2.5 mm
CCn1cc(C(=O)O)c(=O)c2cc(F)c(-n3cccc3)cc21 | Mycobacterium avium | - | - | pH 6.8 | EC50 | - | <3 µg/mL
CN(C)c1cc(NC(=O)CNC(C)(C)C)c(O)c2c1C[C@H]1C[C@H]3[C@H](N(C)C)C(=O)C(C(N)=O)=C(O)[C@@]3(O)C(=O)C1=C2O | Mycobacterium abscessus | X1 | broth dilution | - | MIC | - | 0.5 µg/mL
CCC1CN(c2c(F)cc3c(=O)c(C(=O)O)cn(C4CC4)c3c2OC)CCN1 | Mycobacterium bovis | BCG-CX2 (A90V D94N) | - | - | MIC | - | 2 µg/mL
O=C(O)c1cn(C2CC2)c2c(F)c(N3CCNCC3)c(F)cc2c1=O | Mycobacterium fortuitum | ATCC 6841 | - | - | MIC | - | 0.06 µg/mL
NC[C@H]1O[C@H](O[C@H]2[C@H](O)[C@@H](O[C@H]3O[C@H](CO)[C@@H](O)[C@H](N)[C@H]3O)[C@H](N)C[C@@H]2N)[C@H](O)[C@@H](O)[C@@H]1O | Mycobacterium avium complex | Isolate C-37 | - | - | MIC | - | 400 µg/mL
CC1CN(c2c(F)cc3c(=O)c(C(=O)O)cn(C4CC4)c3c2F)CCN1 | Mycobacterium smegmatis | KD2012 (GYRA G89A) | - | - | MIC99 | - | 0.24 µg/mL

For reference, 3 entries again:

structure,species,strain,method,conditions,measure,dose,value
Cc1nn(-c2ccccc2)c2c1C(c1cn(-c3ccccc3)nc1-c1ccc(Cl)cc1)C1=C(NC(C)(c3cc(O)c(Cl)c(O)c3)NC1=O)O2,Mycobacterium phlei,NCIM 2240,agar diffusion / agar,-,zone,0.1 mg/mL,2.5 mm
COc1ccc2c(c[n+](C)c3c4cc5c(cc4ccc23)OCO5)c1OC,Mycobacterium aurum,-,-,-,MIC50,-,7.3 µg/mL
O=C(O)c1cn(C2CC2)c2c(F)c(N3CCNCC3)c(F)cc2c1=O,Mycobacterium fortuitum,ATCC 6841,-,-,MIC,-,0.06 µg/mL

A number after MIC or MFC names an inhibition level or a share of isolates. An empty or dashed field is not shown. Conditions beyond the fields shown may differ between rows. Zones are inhibition diameters on agar.